Compound potency records, mixed from different reports. Data source: NIAID ChemDB in PubChem.

Common to all: tests in culture; species: Mycobacterium tuberculosis

Blank or dashed fields: not listed here. Two numbers with a dash give a range or band. Conditions beyond the fields shown may differ between rows. ECn: concentration that inhibits the pathogen or its effect by n%. MIC bound comes from a single tested concentration. A number after MIC or MFC names an inhibition level or a share of isolates. Inhibition is in % at the dose shown (toxicity tests: loss of growth or viability).

structure,strain,tested at,read-out,changes,setting,cells,method,result
O=c1oc2ccc(Br)cc2cc1-c1cs/c(=N\N=C\c2cc([N+](=O)[O-])ccc2O)n1Cc1ccccc1,H37Rv,-,MIC,-,-,-,-,>6.25 µg/mL
CO[C@@]12[C@H](COC(C)=O)C3=C(C(=O)C(C)=C(N4CCCCC4)C3=O)N1C[C@@H]1N[C@@H]12,H37Rv,0.5 µM,inhibition,-,-,-,BACTEC,97%
COC(=O)Cc1cc(Cl)c(Oc2cc(C(OC(C)=O)OC(C)=O)cc(OC)c2OC(C)=O)c([N+](=O)[O-])c1,H37Rv,-,MIC,-,-,-,-,31.25–250 µg/mL
CC1(C)N=C(N)N=C(N)N1c1ccc(CCc2ccc(S(=O)(=O)F)cc2Cl)c(Cl)c1,H37Rv,-,MIC bound,-,-,-,BACTEC,>12.5 µg/mL
COc1ccccc1/C=N/N=c1\scc(-c2cc3ccccc3oc2=O)n1Cc1ccccc1,H37Rv,-,MIC,-,-,-,-,>6.25 µg/mL
Cc1cc(C)c(C(=O)N/N=C/c2ccc([N+](=O)[O-])o2)[nH]1,H37Rv,6.25 µg/mL,inhibition,-,-,-,BACTEC,26%
Cn1cnc2c(NS(=O)(=O)c3cccc(F)c3)nc(Cl)cc21,H37Rv,-,MIC99,-,-,-,visual reading,6.5 µM
CC(=O)C(=N\O)/C(C)=N/NC(=O)c1ccncc1,H37Rv,-,MIC bound,-,-,-,BACTEC,≤12.5 µg/mL
COC(=O)Cc1cc([N+](=O)[O-])c(Oc2ccc(OC)cc2)c([N+](=O)[O-])c1,H37Rv,-,MIC,-,-,-,-,62.5–125 µg/mL
O=C1c2nc3n(c2C(=O)c2c1nc1n2CCC1)CCC3,H37Rv,-,MIC bound,-,-,-,BACTEC,>12.5 µg/mL
CCOC(=O)c1cc(-c2ccc(C)cc2)n(CCC(=O)NN)c1C,H37Rv,6.25 µg/mL,inhibition,-,-,-,BACTEC,0%
CCC1C(C)C=CN1c1nc(N)nc(NS(=O)(=O)c2cc(C)c(Cl)cc2S)n1,H37Rv,12.5 µg/mL,inhibition,-,-,-,BACTEC,0%
CC[C@@H](CO)NCCN[C@@H](CC)CO,K137,-,MIC,-,-,-,-,128 µg/mL
Cc1cc2c(=O)cc(-c3ccccc3Cl)oc2c(C(=O)O)c1C,H37Rv,-,MIC bound,-,-,-,BACTEC,>12.5 µg/mL
C/C(=N\N)c1c(C)[nH]c(C(=O)NN)c1C,H37Rv,6.25 µg/mL,inhibition,-,-,-,BACTEC,14%
COc1cc(O)c2c(c1O)C(=O)c1cc(C)ncc1C2=O,H37Rv,-,MIC,-,-,-,BACTEC,≥12.8 µg/mL
CN[C@@H]1[C@H](O[C@H]2[C@H](O[C@H]3[C@H](O)[C@@H](O)[C@H](N=C(N)N)[C@@H](O)[C@@H]3N=C(N)N)O[C@@H](C)[C@]2(O)C=O)O[C@@H](CO)[C@H](O)[C@H]1O,17003,-,MIC80,Ethambutol-resistant,-,-,broth dilution,0.3 µM
CCC12CC3(C(=O)OC)OC1C(O)CN1CCc4c(n3c3cc(OC)ccc43)C12,H37Rv,12.8 µg/mL,inhibition,-,-,-,BACTEC,0%
COc1cc(C(OC(C)=O)OC(C)=O)c([N+](=O)[O-])cc1Oc1cc(C(OC(C)=O)OC(C)=O)cc(OC)c1OC(C)=O,H37Rv,-,MIC,-,-,-,-,250–500 µg/mL
CO[C@@]12[C@H](COC(N)=O)C3=C(C(=O)C(C)=C(N)C3=O)N1C[C@H]1[C@@H]2N1C(=O)C1N2C(=O)[C@@H](NC(=O)Cc3ccccc3)[C@H]2SC1(C)C,EMB-R,-,MIC,-,-,-,-,0.2 µg/mL
CN(C)C/C=C(/c1ccccc1)c1ccc(-c2ccc(Br)cc2)cc1,ALI 3082,-,MIC,-,-,-,-,40 µg/mL
CCC1Cn2cc([N+](=O)[O-])nc2O1,1 isolates rifampin-resistant,-,MIC,-,-,-,-,0.08 µg/mL
O=c1oc2ccc(Br)cc2cc1-c1cs/c(=N\N=C\c2ccc(Cl)cc2)n1Cc1ccccc1,H37Rv,-,MIC,-,-,-,-,>6.25 µg/mL
COC(=O)c1ccc(Oc2cc(C=O)cc(OC)c2OC)cc1,H37Rv,-,MIC,-,-,-,-,62.5 µg/mL
Cc1cc(=O)oc(O)c1N=Nc1ccc(N(C)C)cc1,H37Rv,6.25 µg/mL,inhibition,-,-,-,resazurin,-16%
N[C@H]1CCN(c2nc3c(cc2F)c(=O)c(C(=O)O)cn3C2CC2)C1,H37Rv,1 µg/mL,inhibition,-,inside macrophages,Macrophages,-,70%
CCOC(=O)c1cc(-c2cccc([N+](=O)[O-])c2)n(CCC(=O)NN)c1C,H37Rv,6.25 µg/mL,inhibition,-,-,-,BACTEC,0%
CC[C@H]1OC(=O)[C@H](C)[C@@H](O[C@H]2C[C@@](C)(OC)[C@@H](O)[C@H](C)O2)[C@H](C)[C@@H](O[C@@H]2O[C@H](C)C[C@H](N(C)C)[C@H]2O)[C@](C)(OC)C[C@@H](C)C(=O)[C@H](C)[C@@H](O)[C@]1(C)O,-,-,MIC50,-,-,-,-,>10 µg/mL
COc1ccccc1Oc1ccc(C=O)cc1[N+](=O)[O-],H37Rv,-,MIC,-,-,-,-,500–1000 µg/mL
CO/C(C)=C1/NC(=O)[C@H]([C@@H](C)O)NC(=O)c2csc(n2)-c2cc(O)c(-c3nc(C(=O)NNC4CCN(C)CC4)cs3)nc2-c2csc(n2)[C@@H]2COC(=O)c3c4c5c(cccc5n3O)COC(=O)[C@@H](O[C@H]3C[C@](C)(O)[C@H](N(C)C)[C@H](C)O3)[C@@H](OC4)[C@H](NC(=O)c3csc1n3)c1nc(cs1)C(=O)N2,H37Rv,-,MIC,-,-,-,broth dilution,≤10 µM
CCOC(=O)c1c(C)c(-c2ccccc2)n(CC(=O)N=Nc2c(O)[nH]c3ccccc23)c1C,H37Rv,-,EC50,-,-,-,BACTEC,>6.25 µg/mL
COc1cc(C(Br)C[N+](=O)[O-])cc(Br)c1O,H37Rv,-,MIC,-,-,-,-,62.5 µg/mL
Cc1cccc(S(=O)(=O)Nc2nc(Cl)cc3c2ncn3C)c1,H37Rv,-,MIC99,-,-,-,visual reading,25 µM
Nc1ccc2c(c1)Oc1ccc(N)cc1O2,H37Rv,12.5 µg/mL,inhibition,-,-,-,BACTEC,69%
CN[C@@H]1[C@H](O[C@H]2[C@H](O[C@H]3[C@H](O)[C@@H](O)[C@H](N=C(N)N)[C@@H](O)[C@@H]3N=C(N)N)O[C@@H](C)[C@]2(O)C=O)O[C@@H](CO)[C@H](O)[C@H]1O,9428 (streptomycin isoniazid rifampin-R),-,MIC,-,-,-,-,160 µg/mL
Cn1cnc2c(NC(=O)c3ccc(C#N)cc3)nc(Cl)cc21,H37Rv,-,MIC99,-,-,-,visual reading,25 µM
CO[C@H]1/C=C/O[C@@]2(C)Oc3c(C)c(O)c4c(O)c(c5c(c4c3C2=O)NC2(CCN(CC(C)C)CC2)N=5)=NC(=O)/C(C)=C\C=C\[C@H](C)[C@H](O)[C@@H](C)[C@@H](O)[C@@H](C)[C@H](OC(C)=O)[C@@H]1C,Strain 118 (Q513L),-,MIC,-,-,-,-,16 µg/mL
Cc1occc1C(=S)Nc1ccc(Cl)c(C(=O)OC(C(C)C)C(C)C)c1,H37Rv,-,MIC bound,-,-,-,BACTEC,>12.5 µg/mL
CO[C@H]1/C=C/O[C@@]2(C)Oc3c(C)c(O)c4c(O)c(c(/C=N/N5CCN(C)CC5)c(O)c4c3C2=O)NC(=O)/C(C)=C\C=C\[C@H](C)[C@H](O)[C@@H](C)[C@@H](O)[C@@H](C)[C@H](OC(C)=O)[C@@H]1C,Clinical isolate 18343,-,MIC,Isoniazid- and moxifloxacin-resistant,-,-,broth dilution,≤0.1 µM
CC(=O)Oc1ccccc1C(=O)Nc1ncc([N+](=O)[O-])s1,LAM spoligotype 17,-,MIC,-,-,-,visual reading,14.7 µg/mL
CN(C)C/C=C(\c1ccc(N)cc1)c1ccc(-c2ccc(Br)cc2)cc1,ALI 329,-,MIC,-,-,-,-,≤5 µg/mL
CCn1cc(C(=O)O)c(=O)c2cc(F)c(N3CCNCC3)nc21,-,-,MIC90,-,-,-,-,8.3 µg/mL
Cc1ccc(NP2(N3CC3)=NP(Nc3ccc(C)cc3)(N3CC3)=NP(N3CC3)(N3CC3)=N2)cc1,H37Rv,-,MIC bound,-,-,-,BACTEC,≤128 µg/mL
Cn1cnc2c(NC(=O)Nc3ccc(C#N)cc3)nc(Cl)cc21,H37Rv,-,MIC99,-,-,-,visual reading,>25 µM
CC1COc2c(N3CCN(C)CC3)c(F)cc3c(=O)c(C(=O)O)cn1c23,1773-6,-,MIC,-,-,-,-,0.5 µg/mL
NNC(=O)c1ccncc1,NHN335,-,MIC,-,-,-,-,0.1 µg/mL
O=C(Nc1ccc2c(O)cc(S(=O)(=O)[O-])cc2c1)Nc1ccc2c(O)c(N=Nc3ccc4cc(S(=O)(=O)[O-])ccc4c3)c(S(=O)(=O)[O-])cc2c1.[Na+].[Na+].[Na+],H37Rv,12.5 µg/mL,inhibition,-,-,-,BACTEC,0%
C[C@]1(COc2ccc(N3CCC(Oc4ccc(OC(F)(F)F)cc4)CC3)cc2)Cn2cc([N+](=O)[O-])nc2O1,11 strains (EMB-resistant),-,MIC90,-,-,-,-,0.013 µg/mL
O=C1c2ccccc2C(=O)c2cc(C[P+](c3ccccc3)(c3ccccc3)c3ccccc3)ccc21,H37Rv,-,MIC,-,-,-,resazurin,2 µg/mL
CN(C)C/C=C(/c1ccc(-c2ccc(Br)cc2)cc1)c1ccc(S(C)(=O)=O)cc1,H37Rv,-,MIC,-,-,-,-,34 µg/mL
O=C(O)c1ccccc1C(=O)Oc1ccccc1Oc1ccccc1O,H37Rv,-,MIC,-,-,-,-,1000 µg/mL
COc1nc2ccc(Br)cc2cc1[C@@H](c1ccccc1)[C@@](O)(CCN(C)C)c1cccc2ccccc12,12119,-,MIC80,Ofloxacin-resistant,-,-,broth dilution,<2 µM
CN(C)CC=C(c1ccc(Br)cc1)c1ccc(-c2ccc(Br)cc2)cc1,ALI 3082,-,MIC,-,-,-,-,17 µg/mL
Nc1cc2ncccc2c2ncccc12,H37Rv,12.5 µg/mL,inhibition,-,-,-,BACTEC,67%
Cc1c[nH]c(C)c1C(=O)N/N=C/c1c[nH]c2ccccc12,H37Rv,6.25 µg/mL,inhibition,-,-,-,BACTEC,6%
Cc1cccc(NC(=O)Nc2nc(Cl)cc3c2ncn3C)c1,H37Rv,-,MIC99,-,-,-,visual reading,25 µM
COc1ccc(/C=N/N=c2\scc(-c3cc4cc(Br)ccc4oc3=O)n2Cc2ccccc2)cc1,H37Rv,6.25 µg/mL,inhibition,-,-,-,-,<11%
C1CCCC(NC2=NCCO2)CCC1,H37Rv,-,MIC bound,-,-,-,BACTEC,>12.5 µg/mL
CO/C(C)=C1/NC(=O)[C@H]([C@@H](C)O)NC(=O)c2csc(n2)-c2cc(O)c(-c3nc(C(=O)NCCCN4CCOCC4)cs3)nc2-c2csc(n2)[C@@H]2COC(=O)c3c4c5c(cccc5n3O)COC(=O)[C@@H](O[C@H]3C[C@](C)(O)[C@H](N(C)C)[C@H](C)O3)[C@@H](OC4)[C@H](NC(=O)c3csc1n3)c1nc(cs1)C(=O)N2,Clinical isolate 13923,-,MIC,-,-,-,broth dilution,≤25 µM
CCCNC(=O)CS(=O)(=O)c1ccc(N)cc1,H37Rv,-,MIC bound,-,-,-,BACTEC,>12.5 µg/mL
CC(=O)Nc1ccccc1Oc1ccccc1O,H37Rv,-,MIC,-,-,-,-,250–1000 µg/mL
C=C[C@]12CN(C)[C@@H]3[C@H]4CO[C@H](C[C@H]41)[C@]1(C(=O)Nc4ccccc41)[C@@H]32,H37Rv,-,MIC,-,-,-,BACTEC,≥128 µg/mL
CO[C@H]1/C=C/O[C@@]2(C)Oc3c(C)c(O)c4c(O)c5nc(ncc5c(O)c4c3C2=O)/C(C)=C\C=C\[C@H](C)[C@H](O)[C@@H](C)[C@@H](O)[C@@H](C)[C@H](OC(C)=O)[C@@H]1C,H37Rv,-,MIC,-,-,-,-,<0.03 µg/mL
CN(C)CC=C(c1ccccc1)c1ccc(-c2ccc(Br)cc2)cc1,ALI 909,-,MIC,-,-,-,-,10 µg/mL
C=C1[C@H]([C@]2(C)[C@@H](OC(C)=O)CC(=O)O[C@@](C)(COC(C)=O)[C@@H]2CC(=O)OC)[C@@H](OC=O)[C@H](OC(=O)[C@H](O)[C@H](C)CC)[C@@]2(C)[C@@H](c3ccoc3)CC(=O)[C@]12O,H37Rv,12.5 µg/mL,inhibition,-,-,-,BACTEC,0%
NNC(=O)c1ccncc1,Clinical isolate 565,-,MIC,Multidrug-resistant,-,-,broth dilution,>10 µM
CO[C@H]1/C=C/O[C@@]2(C)Oc3c(C)c(O)c4c(O)c(c(/C=N/N5CCN(C)CC5)c(O)c4c3C2=O)NC(=O)/C(C)=C\C=C\[C@H](C)[C@H](O)[C@@H](C)[C@@H](O)[C@@H](C)[C@H](OC(C)=O)[C@@H]1C,PR326,-,MIC,-,-,-,-,0.08 µg/mL
C=C(NC(=O)c1csc(-c2nc3c(cc2O)-c2nc(cs2)C(=O)N[C@@H]([C@@H](C)O)C(=O)N/C(=C(\C)OC)c2nc(cs2)C(=O)N[C@@H]2c4nc(cs4)C(=O)N[C@@H](COC(=O)c4c5c6c(cccc6n4O)COC(=O)[C@@H](O[C@H]4C[C@](C)(O)[C@H](N(C)C)[C@H](C)O4)[C@H]2OC5)c2nc-3cs2)n1)C(N)=O,Clinical isolate 10975,-,MIC,Rifampicin- and isoniazid-resistant,-,-,broth dilution,≤25 µM
CCOC(=O)c1cc(-c2ccc(Cl)cc2)n(CC(=O)N/N=C/c2ccc([N+](=O)[O-])o2)c1C,H37Rv,6.25 µg/mL,inhibition,-,-,-,BACTEC,55%
NNC(=O)c1ccncc1,12119,-,MIC80,Ofloxacin-resistant,-,-,broth dilution,0.2 µM
CC(=O)NC1=C(OS(=O)(=O)c2ccc(C)cc2)CN(C)C1=O,H37Rv,12.5 µg/mL,inhibition,-,-,-,BACTEC,19%
CN(C)C/C=C(/c1ccc(-c2ccc(Br)cc2)cc1)c1ccc([N+](=O)[O-])cc1,ALI 536,-,MIC,-,-,-,-,18.5 µg/mL